For this assay, the target named is T1, GST-Cldn4.R4 (GST-Ecl2.CT, Aa 138-210) (mouse), O35054.
T1 chain: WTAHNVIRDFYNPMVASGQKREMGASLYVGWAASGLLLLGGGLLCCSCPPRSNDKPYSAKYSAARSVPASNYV
Nature of the assay: SPR, biotinylated peptide on SA chip, GST-Cldn4.R4 analyte, 1:1 Langmuir fit. For orientation: Surface plasmon resonance follows binding to a sensor surface in real time, without labels.

For orientation: Kd means the equilibrium constant for the complex coming apart. A low value points to a tighter complex. What is called koff is a measure of how fast the partners let go of each other. Low readings indicate a long-lived complex, high ones a short-lived complex. As usually defined, the kon is the rate constant with which the complex forms. Low readings indicate slow association, high ones fast association.

B1: Biotin(B)-PEG10-Cpe30 (peptide)
peptide: SLDAGQYVLVMKANSSYSGNYPYSILFQKF
modifications: not checked
B1 returned a Kd of 9.87 nM, an off-rate (koff) of 0.00128 s⁻¹ and a kon of 130000 M⁻¹ s⁻¹.

The values above are taken from patent publication US20110104263A1.
